# Non-standard residues stand in square brackets, D forms with d. Residues, ends and D or L forms follow the SMILES beside them. 1Nal = N[C@@H](Cc1cccc2ccccc12)C(=O)O; 2Nal = N[C@@H](Cc1ccc2ccccc2c1)C(=O)O
# Experiments:
# [1] = Nal fluorescence emission maximum with PE/PG vesicles; type: binding; conditions: PE/PG (7:3, w/w) vesicles, lipid/peptide molar ratio 1000:1
# [2] = Secondary structure by CD spectroscopy, first experiment; type: physicochemical; conditions: for Peptide conformation in phosphate buffer: 30 μM peptide
# [3] = Nal fluorescence emission maximum with PC/cholesterol vesicles; type: binding; conditions: PC/cholesterol (10:1, w/w) vesicles, lipid/peptide molar ratio 1000:1
# [4] = CD spectra of Pac-625 in water, micelles and TFE; type: physicochemical; conditions: 100 μM peptide, pH 4.5, 25° C.
# [5] = Fluorescence emission spectra in phosphate buffer with or without SDS; type: binding; conditions: 1.5 μM peptide
# [6] = Acrylamide fluorescence quenching (Stern-Volmer); type: binding; conditions: acrylamide quencher
# [7] = 10 mM sodium phosphate buffer pH 7.2
Compound,"Nal emission maximum, PE/PG [1]",Peptide conformation in SDS [2],"Nal emission maximum, PC/cholesterol [3]","Peptide conformation in phosphate buffer [2, 7]",other results
"CC[C@H](C)[C@H](NC(C)=O)C(=O)N[C@@H](Cc1ccc2ccccc2c1)C(=O)N[C@@H](CCCNC(=N)N)C(=O)N[C@H](C(=O)N[C@@H](Cc1ccc2ccccc2c1)C(=O)N[C@@H](CCCNC(=N)N)C(=O)N[C@@H](CCCNC(=N)N)C(=O)N[C@@H](Cc1ccc2ccccc2c1)C(=O)N[C@@H](CCCCN)C(N)=O)C(C)C [Pac-626 L, I (2-Nal) R V (2-Nal) R R (2-Nal) K] (Ac-I[2Nal]RV[2Nal]RR[2Nal]K-NH2)",334 ± 2 nm,slightly structured,339 ± 2 nm,–,"Peptide conformation in phosphate buffer ([2]; 10 mM sodium phosphate buffer pH 7.2, listed as Pac 626 L): unordered; Peptide conformation in phosphate buffer ([2]; 10 mM sodium phosphate buffer pH 7.2, listed as Pac-626): unordered structure"
"CC[C@H](C)[C@@H]1NC(=O)[C@H](Cc2ccc3ccccc3c2)NC(=O)[C@H](CCCCN)NC(=O)[C@H](CCCNC(=N)N)NC(=O)[C@H](Cc2ccc3ccccc3c2)NC(=O)[C@H](CCCCN)NC1=O [Pac-403 C, K (2-Nal) I K (2-Nal) R] (cyclo(K[2Nal]IK[2Nal]R); ring closure inferred)",–,unordered,–,unordered,–
"CC[C@H](C)[C@H](NC(=O)[C@H](Cc1ccc2ccccc2c1)NC(=O)[C@H](CCCNC(=N)N)NC(=O)[C@@H](NC(=O)[C@H](Cc1ccc2ccccc2c1)NC(=O)[C@H](CCCNC(=N)N)NC(=O)[C@H](CCCNC(=N)N)NC(=O)[C@H](Cc1ccc2ccccc2c1)NC(=O)[C@H](CCCCN)NC(C)=O)C(C)C)C(N)=O [Pac-625 L, K (2-Nal) R R (2-Nal) V R (2-Nal) I] (Ac-K[2Nal]RR[2Nal]VR[2Nal]I-NH2)",334 ± 2 nm,slightly structured,338 ± 2 nm,–,"conformation by CD in aqueous solution ([4]; aqueous solution): random coil conformation; conformation by CD with micelles of SDS, DPC, LPC12 or TFE ([4]; 10 mM SDS, 10 mM DPC, 1 mM LPC12, 50% TFE): more ordered structure; fluorescence emission maximum ([5]; 20 mM sodium phosphate buffer pH 4.5, without SDS): 356.5 nm; blue shift of fluorescence spectrum on adding SDS ([5]; 25 mM SDS, pH 4.5): 5.0 nm; Peptide conformation in phosphate buffer ([2]; 10 mM sodium phosphate buffer pH 7.2, listed as Pac 625 L): unordered; Peptide conformation in phosphate buffer ([2]; 10 mM sodium phosphate buffer pH 7.2, listed as Pac-625): unordered structure; effective Stern-Volmer constant KSV (eff) ([6]; absence of SDS micelles): 20.06 ± 0.023 M⁻¹; effective Stern-Volmer constant KSV (eff) ([6]; presence of SDS micelles): 14.97 ± 0.023 M⁻¹"
"CC[C@H](C)[C@H](NC(=O)[C@H](Cc1cccc2ccccc12)NC(=O)[C@H](CCCNC(=N)N)NC(=O)[C@@H](NC(=O)[C@H](Cc1cccc2ccccc12)NC(=O)[C@H](CCCNC(=N)N)NC(=O)[C@H](CCCNC(=N)N)NC(=O)[C@H](Cc1cccc2ccccc12)NC(=O)[C@H](CCCCN)NC(C)=O)C(C)C)C(N)=O [Pac-627 L, K (1-Nal) R R (1-Nal) V R (1-Nal) I] (Ac-K[1Nal]RR[1Nal]VR[1Nal]I-NH2)",334 ± 2 nm,–,339 ± 2 nm,–,–
"CC[C@H](C)[C@@H]1NC(=O)[C@H](Cc2ccc3ccccc3c2)NC(=O)[C@H](CCCNC(=N)N)NC(=O)[C@H](C(C)C)NC(=O)[C@H](Cc2ccc3ccccc3c2)NC(=O)[C@H](CCCNC(=N)N)NC(=O)[C@H](CCCNC(=N)N)NC(=O)[C@H](Cc2ccc3ccccc3c2)NC(=O)[C@H](CCCCN)NC1=O [Pac-625 C, K (2-Nal) R R (2-Nal) V R (2-Nal) I] (cyclo(K[2Nal]RR[2Nal]VR[2Nal]I); ring closure inferred)",–,unordered,–,unordered,–
"CC[C@H](C)[C@@H]1NC(=O)[C@H](Cc2ccc3ccccc3c2)NC(=O)[C@H](CCCNC(=N)N)NC(=O)[C@H](CCCNC(=N)N)NC(=O)[C@H](Cc2ccc3ccccc3c2)NC(=O)[C@H](CCCCN)NC1=O [Pac-401 C, K (2-Nal) R R (2-Nal) I] (cyclo(K[2Nal]RR[2Nal]I); ring closure inferred)",–,unordered,–,unordered,–
"CC[C@H](C)[C@@H]1NC(=O)[C@H](CCCCN)NC(=O)[C@H](Cc2ccc3ccccc3c2)NC(=O)[C@H](CCCNC(=N)N)NC(=O)[C@H](CCCNC(=N)N)NC(=O)[C@H](Cc2ccc3ccccc3c2)NC(=O)[C@H](C(C)C)NC(=O)[C@H](CCCNC(=N)N)NC(=O)[C@H](Cc2ccc3ccccc3c2)NC1=O [Pac-626 C, I (2-Nal) R V (2-Nal) R R (2-Nal) K] (cyclo(I[2Nal]RV[2Nal]RR[2Nal]K); ring closure inferred)",–,unordered,–,unordered,–

# Source: patent publication US20060128614A1, “Antimicrobial peptides with reduced hemolysis and methods of their use” (priority 2002, published 2006)
